In article PMC3364950, “Structure and Functional Analysis of the RNA- and Viral Phosphoprotein-Binding Domain of Respiratory Syncytial Virus M2-1 Protein”:

Target: T1, M2-1(58-177) core domain (UniProt P04545)
T1 sequence (looked up, limits assumed): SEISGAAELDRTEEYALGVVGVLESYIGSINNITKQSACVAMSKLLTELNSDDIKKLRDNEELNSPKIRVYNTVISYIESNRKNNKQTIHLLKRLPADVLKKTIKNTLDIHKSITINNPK
Experiment: NMR titration
Conditions: NMR: 50-60 µM protein, 293 K, 14.1 T, 1:1 model; recombinant protein

Sequence	Kd [µM]
AGUUAAUUAAAA [GE_SH-pos]	13
AGUUAUAUAAAA [GE_F-pos]	11

For at least one entry, the source does not settle the construct or the ends of the probe. Protein sequences can lack the tags named with them.
